According to patent EP0417558A2, “S-haloalkyl(di)(tri)(thio)phosphoric(phosphonic)acid(amide) esters” (dated 1991):

What was measured:
[1] = tested on: Lucilia cuprina; experiment: Impregnated filter paper test (Example C), Lucilia cuprina; conditions: 1000 ppm
[2] = tested on: Phorbia antiqua-Maden (im Boden); experiment: Limit concentration test / soil insects (Grenzkonzentrations-Test / Bodeninsekten); conditions: 20 ppm in soil; insects added after 24 h, counted after a further 2 to 7 days

Compound | Wirkung [1] [%] | Wirkungsgrad [2] [%]
CCOP(=S)(SC(C)(F)F)N(C)C (racemic) | 100 | 100
CCOP(=S)(NC(C)C)SC(C)(F)F (racemic) | 100 | –
CCOP(=O)(NC(C)C)SC(C)(F)F (racemic) | – | 100
